Kd data for one substance are collected here from patent US20230285589A1, “LIPOSOME COMPLEX FOR CANCER TREATMENT, COMPRISING NOVEL CD47 BINDER AND POLYNUCLEOTIDE” (priority 2020, published 2023).

The assay concerns the target recombinant CD47 protein (UniProt Q08722).

With “SV1-(C)CRM197 (CRM197 protein added to the C-terminus of SV1) (from UniProt P00588 33-567)”, the Kd (usually the constant that tells how readily two partners part at equilibrium) was determined as 0.894 nM.
